Experimental data: patent publication US20210261650A1

Biological target: SARS-CoV-2 Spike (S) protein on pseudotyped virus or live SARS-CoV-2 (SARS-CoV-2 (BetaCoV/Wuhan-Hu-1/2019 for the pseudotypes; USA-WA1/2020 for live virus in paragraph 846)) (UniProt P0DTC2)
Test: cell-based or functional assay

S309 N55Q MLNS GAALIE (antibody)
EC50, neutralization of live SARS-CoV-2 virus infection: 78.3 ng/mL | EC50, neutralization of pseudotyped virus: 22.1 ng/mL
